System: HIV-1 IIIB
Assay: Screening for virucidal activity against HIV-1 IIIB, MAGI cell assay

## sulfonated 5,10,15,20-tetra-naphthalen-1-yl-porphyrin [TNapPS]
  selective index CC50/EC50: 15

From US20050090428A1, “Porphyrins with virucidal activity” (priority 2002, published 2005)
